{"source": "patent US12252524B2", "about": "(Eli Lilly and Company, priority 2018, dated 2025)", "assay": "general procedure: Fmoc solid-phase peptide synthesis; Fmoc-Rink-MBHA Low Loading resin, 100-200 mesh, 1% DVB cross-linked polystyrene, 0.3-0.4 meq/g (EMD Millipore); diisopropylcarbodiimide/Oxyma; PyAOP/DIPEA for fatty acid-linker", "settings": "whole synthesis, analytical RP-HPLC, TFA salt"}
{"substance": "Y-Aib-EGT-αMeF(2F)-TSDYSI-αMeL-LDEK((2-[2-(2-Amino-ethoxy)-ethoxy]-acetyl)2-(γ-Glu)-CO—(CH2)18—CO2H)AQ-Aib-EFI-(D-Glu)-YLIEGGPSSGAPPPS-NH2", "values": [{"measurement": "final HPLC purity", "value": 98.0, "unit": "%"}]}
